The target in this series is BPHIN 1 (wild-type HIV-1 integrase) (Human immunodeficiency virus 1) (UniProt P04585). Nature of the series: binding assay. The conditions noted are these: tested paired with adaptor 7; pGL2 fragments 150-500 bp; 5 mM MnCl2, 37 C; purified recombinant protein; protein details: BioProducts MD, LLC.

For at least one entry, the source does not settle the construct or the ends of the probe.

As to “CAAGCAGAAGACGGCATACGAGATCGTGATGTGACTGGAGTTCAGACGTGTGCTCTTCCGATCTAGCAGT / ACTGCT [IN adaptor 8]”, the binding result is “binds”.

The values are drawn from patent publication US20190194718.
